Results of unrelated studies side by side (data: NIAID ChemDB).

Common to all: cytotoxicity tests; cell line: C8166; read-out: CC50

Lines come from different laboratories, so protocols vary. Blank or dashed fields: not listed here. CCn: concentration that lowers growth or viability of the cells by n%.

SMILES | method | result
COc1ccc(C(=O)OC(c2cc(OC)c(OC)c(OC)c2)[C@H](C)C(C)O)cc1OC | MTT | 91.8 µg/mL
Cn1c(C=O)cc(=O)n(C)c1=O |  | 300 µM
C=C(C)[C@@H]1CC[C@@H]2C(=CC[C@]3(C)[C@@H]([C@H](C)CC/C=C(/C)C(=O)O)CC[C@@]23C)[C@@]1(C)CCC(=O)O | MTT | 49.19 µg/mL
C=C1CC[C@@H]2[C@](C)(CO)[C@H](O)CC[C@@]2(C)[C@@H]1CCC1C(=O)NCC1O | MTT | >569 µM
CN1CCN(c2ccnc3nc(CN(CCCCN)Cc4c(F)cccc4F)[nH]c23)CC1 | MTT | >10 µM
C=C1C(=O)O[C@H]2[C@@H]1[C@H](OC(=O)C(C)C)[C@H]1[C@@](C)([C@@H](OC(C)=O)CC[C@]1(C)O)[C@H]2OC(C)=O | absorbance | 9.51 µM
CN1CCN(c2ccnc3nc(CN(CCCCN)C4CCCc5cccnc54)[nH]c23)CC1 | MTT | >10 µM
Cc1cc(C)cc(S(=O)(=O)c2c(C(=O)/C=C/C(N)=O)[nH]c3ccc(Cl)cc23)c1 | MTT | >200 µM
Nc1ccn([C@@H]2O[C@H](CO)C[C@@H]2F)c(=O)n1 |  | >100 µM
Cc1cn([C@H]2C[C@H](N=[N+]=[N-])[C@@H](CO)O2)c(=O)[nH]c1=O | MTT | >200 µg/mL
Cc1ccc(C(O)c2cn(C)c(=O)n(C)c2=O)o1 |  | 800 µM
CN(Cc1nc2ccccc2[nH]1)Cc1ncccc1CCC(=O)NC1CC1 | MTT | >10 µM
CCO[C@H]1C[C@H](n2cc(C)c(=O)[nH]c2=O)O[C@@H]1COP(=O)(OCC(Cl)Cl)OC[C@H]1O[C@@H](n2cc(C)c(=O)[nH]c2=O)C[C@@H]1OCC |  | >1000 µM
CN1CCN(c2ccnc3nc(CN(CCCCN)Cc4ccco4)[nH]c23)CC1 | MTT | >10 µM
CC(=O)O[C@H]1C[C@H](n2cc(C)c(=O)[nH]c2=O)O[C@@H]1COP(=O)(OCC(Cl)Cl)OC[C@H]1O[C@@H](n2cc(C)c(=O)[nH]c2=O)C[C@@H]1OC(C)=O |  | 1000 µM
C/C(=C/CC[C@@H](C)[C@H]1CC[C@@]2(C)[C@@H]3CC[C@@H](C(C)(C)O)[C@@]4(CCC(=O)O)C[C@@]34CC[C@]12C)C(=O)O | MTT | 60.9 µg/mL
CO[C@H]1C[C@H](n2cc(C)c(=O)[nH]c2=O)O[C@@H]1COP(=O)(OC[C@H]1O[C@@H](n2cc(C)c(=O)[nH]c2=O)C[C@@H]1OC)OCC(Cl)(Cl)Cl |  | 1000 µM
C=C1CC[C@@H]2[C@](C)(CO)[C@H](O)CC[C@@]2(C)[C@@H]1CC(OC(=O)/C=C/c1cc2c(cc1[N+](=O)[O-])OCO2)C1CCOC1=O | MTT | 4.765 µM
CCCOP(=O)(OCCC)OC[C@H]1O[C@@H](n2cc(C)c(=O)[nH]c2=O)C[C@@H]1N=[N+]=[N-] |  | >100 µM
CN1CCN(c2ccnc3nc(CN(CCCCN)Cc4ncccc4C#N)[nH]c23)CC1 | MTT | >10 µM
CC(=O)O[C@H]1C[C@H](n2cc(C)c(=O)[nH]c2=O)O[C@@H]1CO |  | 500 µM
CCCCCCCCCCCCOP(=O)(OCC(=O)OCC)OC[C@H]1O[C@@H](n2cc(C)c(=O)[nH]c2=O)C[C@@H]1N=[N+]=[N-] |  | 75 µM
CC1=C[C@@H]([C@H]2O[C@@H]3Cc4c(ccc5c4C=C[C@H]4C(C)(C)O[C@@H]6CC(=O)O[C@@]64C5)[C@@H]3[C@@H]2C)OC1=O | MTT | 120.7 µg/mL
CCOP(=O)(N[C@@H](Cc1ccccc1)C(=O)OC)OC[C@H]1O[C@@H](n2cc(C)c(=O)[nH]c2=O)C[C@@H]1N=[N+]=[N-] |  | >100 µM
CCCCOP(=O)(OCCCC)OC[C@H]1O[C@@H](n2cc(C)c(=O)[nH]c2=O)C[C@@H]1N=[N+]=[N-] |  | >100 µM
C=C1CC[C@@H]2[C@](C)(CO)[C@H](O)CC[C@@]2(C)[C@@H]1CC(OC(=O)c1ccc([N+](=O)[O-])cc1)C1CCOC1=O | MTT | 4.726 µM
CCCCOP(=O)(OCCCC)OC[C@H]1O[C@@H](n2cc(C)c(=O)[nH]c2=O)C[C@@H]1OC(C)=O |  | >100 µM
CN1CCN(c2ccnc3nc(CN(CCCCN)Cc4cccnc4)[nH]c23)CC1 | MTT | >10 µM
COC(=O)C(C)OP(=O)(OC)OC[C@H]1O[C@@H](n2cc(C)c(=O)[nH]c2=O)C[C@@H]1N=[N+]=[N-] |  | >100 µM
CCO[C@H]1C[C@H](n2cc(C)c(=O)[nH]c2=O)O[C@@H]1COP(=O)(OC[C@H]1O[C@@H](n2cc(C)c(=O)[nH]c2=O)C[C@@H]1OCC)Oc1ccccc1 |  | 750 µM
CCc1c(CC2CCCCC2)nc(SCC(=O)c2ccc(OC(=O)c3ccccc3)cc2)[nH]c1=O | MTT | 36.85 µM
CCOP(=O)(N[C@H](C(=O)OC)[C@@H](C)CC)OC[C@H]1O[C@@H](n2cc(C)c(=O)[nH]c2=O)C[C@@H]1N=[N+]=[N-] |  | >100 µM
C=C1CC[C@@H]2[C@](C)(CO)[C@H](O)CC[C@@]2(C)[C@@H]1CC(OC(C)=O)C1CCOC1=O | MTT | 5.971 µM
CCCCOP(=O)(NC(C(=O)OC)C(C)C)OC[C@H]1O[C@@H](n2cc(C)c(=O)[nH]c2=O)C[C@@H]1O |  | >100 µM
Cc1cn([C@H]2C[C@H](N=[N+]=[N-])[C@@H](CO)O2)c(=O)[nH]c1=O | absorbance | 1100 µM
CCOP(=O)(OCC)OC[C@H]1O[C@@H](n2cc(C)c(=O)[nH]c2=O)C[C@@H]1N=[N+]=[N-] |  | >100 µM
COC(=O)[C@@H](NP(=O)(OC)OC[C@H]1O[C@@H](n2cc(C)c(=O)[nH]c2=O)C[C@@H]1N=[N+]=[N-])C(C)C |  | >100 µM

The last 5 rows once more:

SMILES	method	result
C=C1CC[C@@H]2[C@](C)(CO)[C@H](O)CC[C@@]2(C)[C@@H]1CC(OC(C)=O)C1CCOC1=O	MTT	5.971 µM
CCCCOP(=O)(NC(C(=O)OC)C(C)C)OC[C@H]1O[C@@H](n2cc(C)c(=O)[nH]c2=O)C[C@@H]1O		>100 µM
Cc1cn([C@H]2C[C@H](N=[N+]=[N-])[C@@H](CO)O2)c(=O)[nH]c1=O	absorbance	1100 µM
CCOP(=O)(OCC)OC[C@H]1O[C@@H](n2cc(C)c(=O)[nH]c2=O)C[C@@H]1N=[N+]=[N-]		>100 µM
COC(=O)[C@@H](NP(=O)(OC)OC[C@H]1O[C@@H](n2cc(C)c(=O)[nH]c2=O)C[C@@H]1N=[N+]=[N-])C(C)C		>100 µM